From patent US20040229242, “Methods of capturing, detecting and quantifying RNA:DNA hybrids and a modified RNase H useful therein” (published 2004) come the findings set out here.

The target of data set [1] is T1, RNase H1 combined mutant (chimera + G94) (Escherichia coli / Yersinia pestis / Klebsiella pneumoniae chimera?) (UniProt A4TL54).
T1 sequence: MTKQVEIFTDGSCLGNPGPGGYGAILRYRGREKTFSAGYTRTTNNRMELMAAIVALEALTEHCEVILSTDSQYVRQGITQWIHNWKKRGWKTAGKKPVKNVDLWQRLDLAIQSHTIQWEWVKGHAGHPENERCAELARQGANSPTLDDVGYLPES
Put plainly: competition. The following applies: 25 C.

Data set [2] deals with T2, RNase H1 chimeric D134A mutant (Escherichia coli / Yersinia pestis / Klebsiella pneumoniae chimera?) (UniProt A4TL54).
T2 sequence: T1 sequence with G94E
Briefly: competition. The following applies: 25 C.

[3] abbreviates: competition vs RNA:DNA#1, filter binding.
Setting [4] is: competition vs RNA:DNA#2, filter binding.
Setting [5] is: competition vs RNA:DNA#3, filter binding.

Residue numbers refer to the chain shown, from its start.

Broadly, the IC50 is the concentration that gives 50% inhibition. For the substance “heat-denatured sheared salmon sperm ssDNA”, the IC50 was found to be 94 µM in data set [1] (setting [3]); 84 µM in data set [1] (setting [4]); 44 µM in data set [1] (setting [5]); 12 µM in data set [2] (setting [3]); 55 µM in data set [2] (setting [4]); 33 µM in data set [2] (setting [5]).
